Results of single-concentration screens

Data taken from ChEMBL document CHEMBL3988442, “University of Dundee, Small-Polar-MMV Screening Library” (2021).

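Whole-cell growth test on Mycobacterium tuberculosis, read after 4 days in a medium based on cholesterol and the lipid DPPC; the read-out is not stated. Compounds at 50 µM. Higher reads as more growth inhibition (inferred: compounds with an IC50 in retests scored well above the rest). About 69,000 compounds were tested under these conditions; 0.54% (about 370) showed 50% or more at least once.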

The filed quantity is “Percent Effect” (%). How 0% and 100% were set is not recorded. Most values in the screen are low, and negative values occur. The entries come from a sample that favours strong results. Two or more numbers in one place are separate tests of the same structure; such repeats can differ widely.

| compound | Percent Effect |
|---|---|
| `COc1ccc(C[C@H]2CN(C(=O)c3ccncc3)CC[C@@H]2OC)cc1.O=C(O)C(F)(F)F` | -19.01 |
| `O=C(NCCc1[nH]nc2c1CCCC2)C1CCCN(Cc2ccco2)C1` (stereo not drawn) | 2.908 and 4.409 |
| `Cc1cccc(C(=O)NCc2ccnc(N(C)C)c2)n1` | -1.477 |
| `Cc1cc(-c2cnc(NCc3ccncc3)nc2C(C)C)on1` | 18.3 |
| `OCCN1CCN(Cc2cc3c(cc2Br)OCCO3)CC1` | -3.164 |
| `OC1CCN(c2nc(-c3ccccc3)no2)CC1` | -1.133 |
| `O=S(=O)(CCO)Cc1ccc(OC(F)F)cc1` | 11.96 |
| `O=C(NCc1nnc2n1CCCCC2)N(Cc1ccncc1)C1CC1` | 65.4 |
| `COc1c(C)cnc(CSc2nnc(N)s2)c1C` | 11.73 and 50.34 |
| `COc1cccc(C(=O)N2CCOC3(CCCN(C(C)=O)C3)C2)c1` (stereo not drawn) | 101.2 and -8.513 |
| `CCOc1ccc(Cl)cc1CCNC(=O)Cn1ccccc1=O` | 9.182 |
| `CC(C)(NC(=O)c1ccc(-c2ccc(F)cc2)s1)C(N)=O` | 3.957 |
| `COCCN(Cc1c(C)nn(C)c1C)C(=O)C1COc2ccccc2C1` (stereo not drawn) | 2.773 and 1.64 |
| `N#CC1CCCN(S(=O)(=O)c2ccc(C(=O)NCC(F)F)cc2)C1` (stereo not drawn) | -3.88 |
| `Cc1cc(NCC2CCS(=O)(=O)C2)n2nc(C)cc2n1` (stereo not drawn) | 101.1 |
| `Cc1ccc(-c2n[nH]cc2CNCC2CCN(CC(F)(F)F)C2)o1.Cl` (stereo not drawn) | -5.182 |
| `CN(Cc1nc(CC2CC2)no1)CC1Cc2ccccc2O1` (stereo not drawn) | 53.98 |
| `C=C(C)COc1ccc(C(=O)NCCn2c(C)cc(C)nc2=O)cc1` | 6.643 |
| `N#CCCCn1nnc(C2(NC(=O)c3ccccc3)CCCC2)n1` | -1.741 |
| `FC1(F)CCN(Cc2cccnc2)CC12CCN(c1ccccn1)C2.O=C(O)C(F)(F)F.O=C(O)C(F)(F)F.O=C(O)C(F)(F)F` (stereo not drawn) | -10.45 |
| `CC(C)c1ccc(-c2nnn(CCNS(C)(=O)=O)n2)cc1` | -1.477 |
| `CC1(c2ccccc2)CCCN(Cc2cncn2C2CCCC2)C1` (stereo not drawn) | 86.27 |
| `CS(=O)(=O)Cc1ccccc1NCc1cc(Cl)ccc1Cl` | -5.745 |
| `CCCc1ncc(CN(CCOC)Cc2cccs2)cn1` | 17.77 |
| `CCN(C)S(=O)(=O)NCC(O)c1cc2ccccc2s1` (stereo not drawn) | 16.09 |
| `Cc1ccc(-c2noc(CN3CCOC(CN(C)C)C3)n2)cc1F` (stereo not drawn) | 2.662 |
| `Cc1cc(C(=O)N2CCN(c3nc4c(C(C)C)cccc4s3)CC2)no1` | 51.22 |
| `COc1ccc(CCC(C)Nc2cccc(SC)c2)cc1` (stereo not drawn) | 69.57 |
| `Cc1ccsc1-c1cccc(-c2ccn(CC3CCNC3)n2)c1` (stereo not drawn) | 54.49 |
| `NC1(c2nc(-c3ccccc3)cc(=O)[nH]2)CCCC1` | -9.553 |
| `CC(C)c1csc(C(=O)N(C)c2ccc(Br)cn2)n1` | 73.39 |
| `CCC1(CO)CCCN(C(=O)c2ccc(N3CCN(C)CC3)cc2)C1` (stereo not drawn) | 23.87 |
| `COC(=O)c1sccc1S(=O)(=O)NCCc1ccoc1` | 7.363 |
| `Cc1nc(CNC(=O)Nc2ccc3c(c2)CCCC(=O)N3)sc1C` | 7.556 |
| `Cc1nc(C2CCCN2Cc2cc(Cl)c3c(c2)OCO3)no1` (stereo not drawn) | 47.82 |
| `CC(NC(=O)CCn1cccn1)c1cccs1` (stereo not drawn) | -3.666 |
| `CCCc1nn(Cc2csc(CC)n2)c(=O)o1` | 39.87 |
| `O=S(=O)(NCCNc1cc(-n2cccc2)ncn1)c1cccs1` | 25.84 |
| `CCOc1ccnc(N[C@@H](Cc2ccccc2)C(N)=O)n1` | -1.984 and 77.23 |
| `Fc1cc(F)cc(CN2CCC(c3cc4ncccc4cn3)CC2)c1` | 9.448 |
| `CNS(=O)(=O)CCNc1cc(C)nc2cc(C)nn12` | -0.1804 |
| `O=C(NCCOc1ncc(Cl)cc1Cl)c1ccncc1` | 0.99 and -6.85 |
| `O=C(CNc1cc(-c2ccccc2)nc2ccnn12)NC1CC1` | 4.169 and -3.539 |
| `Cc1nc(-c2ccc(NCCc3ccc(O)cc3)nc2)[nH]c(=O)c1C` | 59.11 |
| `Clc1ccc(OCCc2cc(C3CCN(c4ncccn4)C3)n[nH]2)cc1` (stereo not drawn) | 58.2 and 43.19 |
| `CN(CC1(C)COC1)C(=O)c1cc(-c2ccn(C)n2)nc2ccccc12` | 6.245 and 17.8 |
| `NC(=O)NC1CCN(Cc2ccc(Br)c(F)c2)CC1` | 0.568 |
| `CCn1ccc(-c2cc(NCCCOc3ccccc3C)nc(C)n2)n1` | 19.35 |

3 of the entries, repeated:

compound,Percent Effect
Cc1cccc(C(=O)NCc2ccnc(N(C)C)c2)n1,-1.477
COc1ccc(C[C@H]2CN(C(=O)c3ccncc3)CC[C@@H]2OC)cc1.O=C(O)C(F)(F)F,-19.01
N#CCCCn1nnc(C2(NC(=O)c3ccccc3)CCCC2)n1,-1.741